Pooled drug test results. Numbers come from NIAID ChemDB, via PubChem.

Shared fields: tests in culture; agent: HIV-1; cells: MT-4; endpoint: EC50

Lines come from different laboratories, so protocols vary. ECn is the concentration giving n% inhibition of infection, replication or growth. Blank or dashed fields: not listed here.

compound | strain | changes | method | result
O=S(=O)(O)O.OCC(O)C(O)C(OC1OC(CO)C(O)C(OC2OC(CO)C(O)C(OC3OC(CO)C(O)C(OC4OC(CO)C(O)C(O)C4O)C3O)C2O)C1O)C(O)CO | IIIB |  | cytopathic effect / MTT | >300 µg/mL
Nc1nc2c(ncn2C[C@@H](CO)OCP(=O)(O)O)c(=O)[nH]1 | IIIB |  | cytopathic effect | 43 µM
CC(C)CN(C[C@@H](O)[C@H](Cc1ccccc1)NC(=O)O[C@H]1CCOC1)S(=O)(=O)c1ccc(N)cc1 | r13205 |  | reporter gene | 1601 nM
COc1cc([C@H]2c3c(cc4c(c3OC)OCO4)C[C@H]3CSC[C@@H]32)cc(C)c1OC | IIIB |  | cytopathic effect / MTT | 5.1 µM
COc1c(-c2cc(C)[nH]n2)c(O)c(S(=O)(=O)OC2CCCC2)c2occc12 | IIIB |  | MTT | 0.000025 µM
CCCC[C@H](C)OC(=O)[C@@H](N)c1ccccc1-c1c[nH]c2ccccc12 | NL4-3 |  | MTT | 2.7 µM
Nc1nc2c(ncn2C[C@H](CF)OCP(=O)(O)O)c(=O)[nH]1 | IIIB |  | cytopathic effect | 5.9 µM
CCOC(=O)C1c2cccn2S(=O)(=O)c2ccccc2N1C(=O)CBr | IIIB |  | MTT | >10.7 µM
Cc1cn([C@H]2C[C@H](N=[N+]=[N-])[C@@H](CO)O2)c(=O)[nH]c1=O | NL4-3 |  | MTT | 0.012 µM
CCOC(=O)C12CC(=O)N1c1ccccc1S(=O)(=O)n1cccc12 | IIIB |  | MTT | >23 µM
CC(C)=CCN1Cc2cccc3[nH]c(=S)n(c23)C[C@@H]1C | IIIB |  |  | 0.29 µM
C=CCCc1cccc(Cc2c(CC)c(=O)n(COCC)c(=O)n2COCC)c1 | RT-K103N Y181C Mutant NNRTI-resistant |  | cytopathic effect / MTT | >45 µM
Cc1cc(C#N)cc(C)c1Oc1nc(NC2CCC(NCc3cccc(C(F)(F)F)c3)CC2)nc2ccsc12 | IIIB | NNRTI-resistant (RT L100I) | MTT | >707 µM
COc1c(-c2cc(C)n(C)n2)c(O)c(S(=O)(=O)Oc2ccc([N+](=O)[O-])cc2)c2occc12 | IIIB |  | MTT | 0.000015 µM
Nc1nc2c(ncn2C[C@H](CO)OCP(=O)(O)O)c(=O)[nH]1 | IIIB |  | cytopathic effect | >12.5 µM
C=CCOc1cccc(Cc2c(CC)c(=O)[nH]c(=O)n2COCC)c1 | RT-K103N Y181C Mutant NNRTI-resistant |  | cytopathic effect / MTT | >65 µM
CC(C)CN(C[C@@H](O)[C@H](Cc1ccccc1)NC(=O)O[C@H]1CO[C@H]2OCC[C@H]21)S(=O)(=O)c1ccc2[nH]c(O)c(C=NCc3nc4ccccc4[nH]3)c2c1 |  | L10 L24 M36 I54 L63 A71 V82 I84 | MTT | >0.4 µM
Nc1ncnc2c1ncn2C[C@H](CO)OCP(=O)(O)O | IIIB |  | cytopathic effect | >330 µM
C[C@]12CCC3C(CC=C4C[C@@H](O)CC[C@@]43C)C1CCC2C(=O)/C=C/c1ccccc1C(=O)O | IIIB |  | MTT | >13.98 µM
Cc1cc(/C=C/C#N)cc(C)c1Oc1nc(NC2CCN(Cc3ccncc3)CC2)nc2ccsc12 | IIIB | NNRTI-resistant (RT K103N) | MTT | 0.00556 µM
C[C@H]1Cn2c(=O)[nH]c3cccc(c32)CN1 | IIIB |  | cytopathic effect / MTT | >901 µM
Nc1nc(=O)n([C@H]2CC[C@@H](CO)O2)cc1F | RF |  | syncytia | 0.025 µM
COc1cc([C@H]2c3c(cc(OC)c(OC)c3OC)C[C@H]3CSC[C@@H]32)cc(OC)c1OC | IIIB |  | cytopathic effect / MTT | 0.8 µM
COC(=O)c1ccc(CN2CCC(Nc3nc(Oc4c(C)cc(C#N)cc4C)c4ccsc4n3)CC2)cc1 | IIIB | NNRTI-resistant (RT K103N) | MTT | 0.0291 µM
CC1(C)[C@@H](O[C@H]2O[C@H](C(=O)O)[C@@H](O)[C@H](O)[C@H]2O[C@@H]2O[C@H](C(=O)O)[C@@H](O)[C@H](O)[C@H]2O)CC[C@]2(C)[C@H]3C(=O)C=C4[C@@H]5C[C@@](C)(C(=O)O)CC[C@]5(C)CC[C@@]4(C)[C@]3(C)CC[C@@H]12 | IIIB |  | plaque count | <150 µM
Cc1ccc(/C=C/C(=O)C2CCC3C4CC=C5C[C@@H](O)CC[C@]5(C)C4CC[C@]23C)cc1 | IIIB |  | MTT | >51.7 µM
C=CCCc1cccc(Cc2c(CC)c(=O)[nH]c(=O)n2COCC=C)c1 | RT-K103N Y181C Mutant NNRTI-resistant |  | cytopathic effect / MTT | 5 µM
COc1c(-c2cc(C)n(-c3ccccc3)n2)c(O)c(S(=O)(=O)OC2CCCCC2)c2occc12 | IIIB |  | MTT | 0.000021 µM
CSCC[C@H](C)OC(=O)[C@@H](NC(=O)Cc1c[nH]c2ccccc12)c1ccccc1-c1c[nH]c2ccccc12 | NL4-3 |  | MTT | >12 µM
Cc1cc(/C=C/C#N)cc(C)c1Oc1nc(NC2CCN(Cc3cccnc3)CC2)nc2ccsc12 | IIIB | NNRTI-resistant (RT Y188L) | MTT | 0.0107 µM
CCOC(=O)c1ccc(NC(=O)COc2cccnc2-c2cccc3ccccc23)c(Br)c1 | IIIB |  | MTT / absorbance | >149 µM
C=CCC(C(=O)O)c1c(-c2ccccc2)c2cc(Cl)ccc2[nH]c1=O |  |  | MTT | 12.4 µM
C=CCOc1cccc(Cc2nc(N(C)C)[nH]c(=O)c2CC)c1 | IIIB |  | cytopathic effect / MTT | >20 µM
CSCCC(OC(=O)[C@@H](N)c1ccccc1-c1c[nH]c2ccccc12)C(C)(C)C | NL4-3 |  | MTT | 18 µM
O=S(=O)(O)O.OCC1OC(OC2C(O)C(CO)OC(OC3C(O)C(CO)OC(OC4C(O)C(CO)OC(OC5C(O)C(O)OC(CO)C5O)C4O)C3O)C2O)C(O)C(O)C1O | IIIB |  | cytopathic effect / MTT | >300 µg/mL
CCOCn1c(Cc2cccc(OCC3CO3)c2)c(CC)c(=O)[nH]c1=O | IIIB |  | cytopathic effect / MTT | 14 µM
C[C@]12CCC3C(CC=C4C[C@@H](O)CC[C@@]43C)C1CCC2C(=O)/C=C/c1ccoc1 | IIIB |  | MTT | >12 µM
Cc1ccc(-c2ncccc2OCC(=O)Nc2ccc(S(N)(=O)=O)cc2)cc1 | IIIB |  | MTT / absorbance | >249 µM
C[C@]12CCC3C(CC=C4C[C@@H](O)CC[C@@]43C)C1CCC2C(=O)/C=C/c1ccsc1 | IIIB |  | MTT | >125 µM
C=CCCc1cccc(Cc2[nH]c(=O)[nH]c(=O)c2CC)c1 | RT-Y181C Mutant NNRTI-resistant |  | cytopathic effect / MTT | >66 µM
COC(=O)c1ccc(NC(=O)COc2cccnc2-c2cccc3ccccc23)cc1 | IIIB |  | MTT / absorbance | >64.9 µM
CN(C)c1ccc(Nc2c3ccc(NC(=O)CCN4CCCC4)cc3nc3cc(NC(=O)CCN4CCCC4)ccc23)cc1 | IIIB |  | GFP / single cycle | 6.2 µM
C=CCOCn1c(Cc2cccc(OCC=C)c2)c(CC)c(=O)[nH]c1=O | IIIB |  | cytopathic effect / MTT | 0.4 µM
COc1ccc([C@H]2c3c(cc4c(c3OC)OCO4)C[C@H]3CSC[C@@H]32)cc1OCc1ccccc1 | IIIB |  | cytopathic effect / MTT | 4.78 µM
[O-][n+]1onc2ncnc(N3CC[N+]4(CC3)CC[N+]3(CCN(c5ncnc6no[n+]([O-])c56)CC3)CC4)c21 | IIIB |  | cytopathic effect / XTT | 5.7 µM
CC1Cn2c(=O)[nH]c3cccc(c32)CN1Cc1ccc[nH]1 | IIIB |  | cytopathic effect / MTT | >92 µM
NS(=O)(=O)c1ccc(NC(=O)COc2cccnc2-c2ccc(C(F)(F)F)cc2)cc1 | IIIB |  | MTT / absorbance | >220 µM
Cc1cc(/C=C/C#N)cc(C)c1Oc1nc(NC2CCN(Cc3cccc(F)c3)CC2)nc2ccsc12 | IIIB | NNRTI-resistant (RT Y181C) | MTT | 0.0345 µM
Cc1nsc(C)c1CNC(=O)[C@H]1N(C(=O)[C@@H](O)C[C@@H](Cc2ccccc2)C(=O)N[C@H]2c3ccccc3OC[C@H]2O)COC12CCCC2 | NL4-3 |  | p24 | <0.125 µM
O=C(O)CC1Nc2ccccc2S(=O)(=O)n2cccc21 | IIIB |  | MTT | >342 µM
Cc1cccc(C)c1CNC(=O)[C@H]1N(C(=O)[C@@H](O)C[C@@H](Cc2ccccc2)C(=O)N[C@H]2c3ccccc3OC[C@H]2O)CCC1(C)C | NL4-3 |  | p24 | <0.5 µM
CSCC[C@H](OC(=O)[C@@H](N)c1ccccc1-c1c[nH]c2ccccc12)c1ccccc1 | NL4-3 |  | MTT | 12 µM
COc1c(C(=O)/C=C(/C)Nc2ccc([N+](=O)[O-])cc2)c(O)c(S(=O)(=O)Oc2ccc([N+](=O)[O-])cc2)c2occc12 | IIIB |  | MTT | 0.000039 µM
Cc1cc(C#N)cc(C)c1Oc1nc(NC2CCC(NCc3ccc(F)cc3)CC2)nc2ccsc12 | IIIB | NNRTI-resistant (RT Y188L) | MTT | >2.77 µM
COc1c(-c2cc(C)n(-c3ccccc3)n2)c(O)c(S(=O)(=O)OC2CCCC2)c2occc12 | IIIB |  | MTT | 0.000019 µM
O=C(N[C@H]1c2ccccc2OC[C@H]1O)[C@H](Cc1ccccc1)C[C@H](O)C(=O)N1COC2(CCCC2)[C@H]1C(=O)NCc1c(Cl)cccc1Cl | NL4-3 |  | p24 | <0.0625 µM
C=CCN1Cc2cccc3[nH]c(=O)n(c23)C[C@H]1C | IIIB |  | cytopathic effect / MTT | >592 µM
Cc1ccc(C(=O)N2c3ccccc3S(=O)(=O)n3cccc3C2CC(=O)O)cc1 | IIIB |  | MTT | >326 µM
COC(=O)c1ccc(NC(=O)COc2cccnc2-c2cccc3ccccc23)c(Br)c1 | RES056 |  | MTT / absorbance | >19.3 µM
CC(C)OCCN1Cc2cccc3[nH]c(=O)n(c23)CC1C | IIIB |  | cytopathic effect / MTT | >504 µM
C[C@@H](Cn1cnc2c(N)nc(N)nc21)OCP(=O)(O)O | IIIB |  | cytopathic effect | 7.4 µM
CC(C)c1c(Cc2ccccc2)n(COCc2ccccc2)c(=O)[nH]c1=O | A17 | K103N/Y181C | p24 / ELISA | >10 µM
COc1c2c(cc3c1[C@H](c1ccc(O)c(Oc4ccccc4)c1)[C@H]1C(=O)OC[C@@H]1C3)OCO2 | IIIB |  |  | 5.17 µM
C=CCOc1cccc(Cc2[nH]c(=O)c(CC)c(O)c2CC)c1 | RT-K103N Y181C Mutant NNRTI-resistant |  | cytopathic effect / MTT | >20 µM
Nc1ncc2ncn(C[C@H](CF)OCP(=O)(O)O)c2n1 | IIIB |  | cytopathic effect | >300 µM

A second listing of 8 rows from above:

compound,strain,changes,method,result
Cc1nsc(C)c1CNC(=O)[C@H]1N(C(=O)[C@@H](O)C[C@@H](Cc2ccccc2)C(=O)N[C@H]2c3ccccc3OC[C@H]2O)COC12CCCC2,NL4-3,,p24,<0.125 µM
CC1(C)[C@@H](O[C@H]2O[C@H](C(=O)O)[C@@H](O)[C@H](O)[C@H]2O[C@@H]2O[C@H](C(=O)O)[C@@H](O)[C@H](O)[C@H]2O)CC[C@]2(C)[C@H]3C(=O)C=C4[C@@H]5C[C@@](C)(C(=O)O)CC[C@]5(C)CC[C@@]4(C)[C@]3(C)CC[C@@H]12,IIIB,,plaque count,<150 µM
CSCC[C@H](OC(=O)[C@@H](N)c1ccccc1-c1c[nH]c2ccccc12)c1ccccc1,NL4-3,,MTT,12 µM
COC(=O)c1ccc(NC(=O)COc2cccnc2-c2cccc3ccccc23)c(Br)c1,RES056,,MTT / absorbance,>19.3 µM
NS(=O)(=O)c1ccc(NC(=O)COc2cccnc2-c2ccc(C(F)(F)F)cc2)cc1,IIIB,,MTT / absorbance,>220 µM
C=CCOc1cccc(Cc2nc(N(C)C)[nH]c(=O)c2CC)c1,IIIB,,cytopathic effect / MTT,>20 µM
CC(C)CN(C[C@@H](O)[C@H](Cc1ccccc1)NC(=O)O[C@H]1CCOC1)S(=O)(=O)c1ccc(N)cc1,r13205,,reporter gene,1601 nM
Nc1nc2c(ncn2C[C@H](CF)OCP(=O)(O)O)c(=O)[nH]1,IIIB,,cytopathic effect,5.9 µM